From paper PMC10654194
For at least one entry, the source does not settle the construct or the ends of the probe.

Tested on: RBP42
Test: EMSA
Conditions: recombinant protein

“GCGACUCGCCAAGAAGCACAACGUGCACCUCCCCAUAUGCCAUGAGGUCUACA [target RNA (Fig. 2E)]”: binds.
